The source of these data is patent publication US20020164721A1, “Design of a polyepitopic construct for the induction of HLA-A2.1 restricted HIV 1 specific CTL responses using HHD mice” (priority 1999, published 2002).

For assay [1], the system named is HHD-transfected RMA-S cells loaded with variant peptides. The experiment in a line: Cross-recognition of the main HIV 1 natural variants by induced CTL. In kind it is in vivo, HHD mice. The following applies: CTL induced by the immunizing peptide; FIG. 4.
The subject of assay [2] is peptide-pulsed HHD-transfected RMAS cells. In kind it is in vivo, HHD mice. The following applies: for Responder/tested mice: with helper peptide, 50 μg CD8 + 140 μg HBV core T13L in IFA.

In the case of “AKTPLCVTL (KLTPLCVTL) [K9L/T, HIV 1 ENV gp120 (120-128) CD8 epitopic peptide, T variant]”, in assay [1], the “cross-recognition of natural HIV 1 variants (in words)” value is on record as “lack of cross-recognition”. In addition, the Responder/tested mice in assay [2] was 1/6.
For the sequence “SLYNTVATL [S9L, HIV 1 GAG p17 (77-85) CD8 epitopic peptide]”, in assay [1], the “cross-recognition of natural HIV 1 variants (in words)” value is “cross-lysed significantly all main natural variants”. In assay [2] (co-injected HBV core T13L), the “effect of helper co-injection on the response (in words)” value is listed as “abolished”. Also, the Responder/tested mice in assay [2] was 0/6.
